The exact form of at least one protein or probe is not confirmed. For some of these results: No signal at the amounts used counts as a negative. For some of these results: The comparison behind a weaker result is the experiment's own reference, which may not be listed here. For some of these results: Tags and fusion partners may be left off the protein sequences shown.
How the values were obtained:
[1] = biological target: T1, Ct-HpParB (Helicobacter pylori) (UniProt O25758); test: EMSA; conditions: 2 mM CTP, specific complex only with excess protein, EMSA: 20 mM Tris-HCl pH 8.0, 50 mM NaCl, 11 mM imidazole, 5 mM MgCl2, 10% glycerol, 37 C, gel at 4 C, recombinant protein, label: none (GelRed stain)
T1 sequence (looked up, limits assumed): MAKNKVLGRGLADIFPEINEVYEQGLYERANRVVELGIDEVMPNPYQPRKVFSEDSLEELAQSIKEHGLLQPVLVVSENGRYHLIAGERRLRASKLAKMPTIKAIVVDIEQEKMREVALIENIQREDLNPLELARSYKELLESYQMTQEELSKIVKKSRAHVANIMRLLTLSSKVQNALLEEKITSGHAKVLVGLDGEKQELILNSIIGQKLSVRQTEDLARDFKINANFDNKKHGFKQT

[2] = biological target: T2, HpParB (HpSpo0J) (Helicobacter pylori) (UniProt O25758); test: fluorescence polarization; conditions: no CTP, Kd could not be determined; FP: 20 mM Tris-HCl pH 8.0, 175 mM NaCl, 5 mM MgCl2, 10% glycerol, 1 mM ATP or CTP, 5 nM DNA, room temperature; recombinant protein
T2 sequence (looked up, limits assumed): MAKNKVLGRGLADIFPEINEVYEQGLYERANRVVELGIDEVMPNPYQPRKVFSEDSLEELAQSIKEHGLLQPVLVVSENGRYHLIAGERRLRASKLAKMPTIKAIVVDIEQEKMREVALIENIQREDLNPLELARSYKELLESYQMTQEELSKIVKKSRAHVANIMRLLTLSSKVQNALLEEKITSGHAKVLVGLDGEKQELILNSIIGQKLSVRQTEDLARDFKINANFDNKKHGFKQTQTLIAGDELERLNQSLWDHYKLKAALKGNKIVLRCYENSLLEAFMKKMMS

[3] = system: HpParA (HpSoj) + HpParB (HpSpo0J); test: EMSA; conditions: 2 mM CTP, with Cy3-parS (N3), NAC1 not observed, HpParB-DNA complex and free DNA seen, EMSA: 20 mM Tris-HCl pH 8.0, 50 mM NaCl, 11 mM imidazole, 5 mM MgCl2, 10% glycerol, 37 C, gel at 4 C, recombinant protein
[4] = biological target: T2, HpParB (HpSpo0J) (Helicobacter pylori); test: EMSA; conditions: no CTP, minimal binding; EMSA: 20 mM Tris-HCl pH 8.0, 50 mM NaCl, 11 mM imidazole, 5 mM MgCl2, 10% glycerol, +/- 2 mM CTP, 37 C, gel at 4 C; recombinant …; label: none (GelRed stain)

Does “AGGGTGTTCCACGTGAAACAGGGA (double strand) [parS 24-bp]” bind [1]?
Result: binds more weakly

Does “TCCTATGAATTGCTATGGCAAGCG (double strand) [Cy5/Cy3-labeled nsDNA 24-bp]” bind [2]?
Result: binds more weakly

Does “TCCTATGAATTGCTATGGCAAGCG (double strand) [Cy5/Cy3-labeled nsDNA 24-bp]” bind [3]?
Result: no binding

Does “TCCTATGAATTGCTATGGCAAGCG (double strand) [nsDNA 24-bp]” bind [4]?
Result: binds more weakly
